The test system of experiment [1] is Pseudomonas aeruginosa. The experiment in a line: Ratio of MIC for Pseudomonas aeruginosa 3020R to MIC for Pseudomonas aeruginosa PAO1. It is filed as functional.
The test system of experiment [2] is Pseudomonas aeruginosa. Put plainly: Ratio of MIC for Pseudomonas aeruginosa 615R to MIC for Pseudomonas aeruginosa PAO1. It is filed as functional.

Bounds are passed on as bounds.

For GENTAMICIN, the fold change (FC) in the experiment on Pseudomonas aeruginosa [1] and with Pseudomonas aeruginosa [2] was more than 4 in each case.
